Anti-infective test results gathered from many reports (values: NIAID ChemDB through PubChem).

All rows: whole-cell or culture tests

Fold resistance has wild type as its base. ECn: concentration that inhibits the pathogen or its effect by n%. MIC50, MIC90 and the like: level of inhibition, or share of isolates inhibited. An empty or dashed field is not shown. Conditions beyond the fields shown may differ between rows. Inhibition is in % at the dose shown (toxicity tests: loss of growth or viability).

structure | agent | strain or isolate | mutations | cells | read by | measure | tested at | result
Nc1ncnc2c1ncn2OCCOCP(=O)(O)O | Maedi-visna virus | K184 | - | - | - | MIC | - | 8 µM
O=C(O)CP(=O)(O)O | Varicella zoster virus | Oka PMEDAP-resistant | - | HEL | cytopathic effect | EC50 | - | 118.5 µM
O=C(NCc1ccc(Cl)cc1)c1c[nH]c2c(F)cc(CCCO)cc2c1=O | Rat cytomegalovirus | ATCC | - | - | plaque count | EC50 | - | 2.5 µM
Nc1ncnc2c1ncn2OCC(CO)OCP(=O)(O)O | Maedi-visna virus | K184 | - | - | - | MIC | - | 3.1 µM
CC(=O)Nc1ccc(C(=O)O)cc1 | Pneumocystis carinii | - | - | - | - | inhibition | 10 µM | 22%
Nc1ncnc2c1ncn2C=C1CC1CO | Human cytomegalovirus | VR3480 (ganciclovir-resistant) | - | - | plaque count | EC90 | - | 8.4 µM
Nc1nc2c(ncn2COC(CO)CO)c(=O)[nH]1 | Cytomegalovirus | - | - | HEL | - | inhibition | 10 µM | 98%
CC(=O)NC[C@H]1CN(c2ccc(-c3cnn(Cc4ccccc4)c3)c(F)c2)C(=O)O1 | Haemophilus influenzae | UC 30063 | - | - | - | MIC | - | >64 µg/mL
Cc1cc2[nH]cnc2cc1NC(=O)COc1ccc(Cl)cc1C(=O)c1cc(F)cc(C(F)(F)F)c1 | HIV-1 | HXB2 | RT-L100I | HeLa + HELA CD4+ | β-galactosidase | fold resistance | - | ~1
Cc1cn([C@H]2C[C@H](N=[N+]=[N-])[C@@H](CO)O2)c(=O)[nH]c1=O | Maedi-visna virus | K184 | - | - | - | MIC | - | 5.6 µM
CC(=O)ONc1ccc(S(=O)(=O)N(CC(C)C)C[C@@H](O)[C@H](Cc2ccccc2)NC(=O)CN2C(=O)c3ccccc3S2(=O)=O)cc1 | SIV | - | - | CEM | MTT | EC50 | - | 7.2 µM
O=C(NCc1ccc(Cl)cc1)c1c[nH]c2ccc(C#CCO)cc2c1=O | Rat cytomegalovirus | ATCC | - | - | plaque count | EC50 | - | 0.6 µM
CCCCCCCCCCCCCCCCCCCCCCOCC(C)(COCCCCCCCCCCCCCCCCCCCCCC)CO[C@]1(C(=O)O)C[C@H](OS(=O)(=O)O)[C@@H](NC(C)=O)[C@H]([C@H](OS(=O)(=O)O)[C@@H](COS(=O)(=O)O)OS(=O)(=O)O)O1 | Rotavirus | WA (serotype 1) | - | MA-104 | plaque count | EC50 | - | 2.1 µg/mL
Cc1cccc2c1C(=O)c1cnn(C)c1C2=O | Cryptosporidium parvum | - | - | - | - | inhibition | 100 µM | <10%
N#CC(c1ccc(Cl)cc1)c1c(Cl)cc(-n2ncc(=O)[nH]c2=O)cc1Cl | Toxoplasma gondii | RH | - | - | - | inhibition | 0.001 µg/mL | 24.4%
Nc1ncnc2c1ncn2C[C@@H](CO)OCP(=O)(O)O | Varicella zoster virus | Oka BVaraU-resistant | - | HEL | cytopathic effect | EC50 | - | 0.01 µM
CC[C@H]1OC(=O)[C@H](C)C(=O)[C@H](C)[C@@H](O[C@@H]2O[C@H](C)C[C@H](N(C)C)[C@H]2O)[C@@]2(C)C[C@@H](C)C(=NC(C)=O)[C@H](C)[C@@H](OC/C(=N/OCc3ccc(-c4cccc(N)n4)s3)CO2)[C@]1(C)O | Streptococcus pneumoniae | 700906 (erythromycin A-resistant) | - | - | - | MIC | - | 2 µg/mL
CC(C)CN(C[C@@H](O)[C@H](Cc1ccccc1)NC(=O)[C@H](C(C)C)N1C(=O)c2ccccc2C1=O)S(=O)(=O)c1ccc(Br)cc1 | SIV | - | - | CEM | MTT | EC50 | - | 3.2 µM
Nc1nc2c(ncn2CCC(CO)CO)c(=O)[nH]1 | Varicella zoster virus | Clinical isolate VZV-27 | - | HEL | cytopathic effect | EC50 | - | 4.03 µM
O=C1c2ccccc2C(=O)c2[nH]ncc21 | Cryptosporidium parvum | - | - | - | - | inhibition | 25 µM | <10%
CC[C@H]1OC(=O)[C@@](C)(F)C(=O)[C@H](C)[C@@H](O[C@@H]2O[C@H](C)C[C@H](N(C)C)[C@H]2O)[C@@]2(C)C[C@@H](C)C(=NC(C)=O)[C@H](C)[C@@H](OC/C(=N\OCc3ccc(N)nc3)CO2)[C@]1(C)O | Streptococcus pneumoniae | 700906 (erythromycin A-resistant) | - | - | - | MIC | - | <0.06 µg/mL
NCCCC[C@H](NC(=O)[C@H](Cc1c[nH]c2ccccc12)NC(=O)[C@H](CCCCN)NC(=O)[C@@H](N)CCCCN)C(=O)O | Cryptococcus neoformans | ATCC 32264 | - | - | - | inhibition | 200 µM | 0%
CC[C@H]1OC(=O)[C@H](C)C(=O)[C@H](C)[C@@H](O[C@@H]2O[C@H](C)C[C@H](N(C)C)[C@H]2O)[C@@]2(C)C[C@@H](C)C(=NC(C)=O)[C@H](C)C(OC/C(=N\OCC#Cc3cccc(N)n3)CO2)[C@]1(C)O | Haemophilus influenzae | 25 strains | - | - | - | MIC90 | - | >32 µg/mL
CSc1ncnc2c1ncn2[C@@H]1OC2COP(=O)(O)OC2[C@H]1O | Parainfluenza virus | TYPE 3 | - | - | - | MIC | - | 100 µg/mL
O=S(=O)(O)c1cc(O)c2c(NS(=O)(=O)c3ccc(-c4ccc(S(=O)(=O)Nc5cc(S(=O)(=O)O)cc6cc(S(=O)(=O)O)cc(O)c56)cc4)cc3)cc(S(=O)(=O)O)cc2c1 | Cytomegalovirus | Isolate T-1082 | - | MRC-5 | plaque count | EC50 | - | 25 µM
Nc1nc(Cl)c2ncn(OCCOCP(=O)(O)O)c2n1 | Maedi-visna virus | K184 | - | - | - | MIC | - | 0.009 µM
C[C@@H](c1ncncc1F)[C@](O)(Cn1cncn1)c1ccc(F)cc1F | Cryptococcus gattii | VG IIa | - | - | broth dilution | MIC50 | - | 125 µg/mL
Nc1nc2c(ncn2OCC(CO)OCP(=O)(O)O)c(=O)[nH]1 | Maedi-visna virus | K184 | - | - | - | MIC | - | 0.003 µM
CC[C@H]1OC(=O)[C@@](C)(F)C(=O)[C@H](C)[C@@H](O[C@@H]2O[C@H](C)C[C@H](N(C)C)[C@H]2O)[C@@]2(C)C[C@@H](C)C(=NC(C)=O)[C@H](C)[C@@H](OC/C(=N\OCc3ccc(-c4cccc(N)n4)s3)CO2)[C@]1(C)O | Streptococcus pneumoniae | 700906 (erythromycin A-resistant) | - | - | - | MIC | - | <0.06 µg/mL
CC(=O)NC[C@H]1CN(c2ccc(-c3noc(C#N)n3)c(F)c2)C(=O)O1 | Staphylococcus epidermidis | UC12084 (methicillin-resistant) | - | - | - | MIC | - | 4 µg/mL
Cc1cc(OCCCS(N)(=O)=O)ccc1NC(=O)COc1ccc(Cl)cc1C(=O)c1cc(F)cc(C(F)(F)F)c1 | HIV-1 | HXB2 | RT-V106I | HeLa + HELA CD4+ | β-galactosidase | fold resistance | - | ~1
Nc1nc2c(ncn2COC(CO)CO)c(=O)[nH]1 | Varicella zoster virus | Oka BVDU-resistant | - | HEL | cytopathic effect | EC50 | - | 5.8 µM
CC(C)CN(C[C@@H](O)[C@H](Cc1ccccc1)NC(=O)CCc1c[nH]c2ccccc12)S(=O)(=O)c1ccc(Br)cc1 | SIV | - | - | CEM | MTT | EC50 | - | 12 µM
Cc1cc(O)c2c(c1)C(=O)c1c(cnn1C)C2=O | Cryptosporidium parvum | - | - | - | - | inhibition | 10 µM | <10%
O=C(O)P(=O)(O)O | Varicella zoster virus | Clinical isolate VZV-13 | - | HEL | cytopathic effect | EC50 | - | 88.4 µM
Cc1cc(S(N)(=O)=O)ccc1NC(=O)COc1ccc(Cl)cc1C(=O)c1cc(F)cc(C(F)(F)F)c1 | HIV-1 | HXB2 | RT-L100I | HeLa + HELA CD4+ | β-galactosidase | fold resistance | - | ~1
CC(=O)NC[C@H]1CN(c2ccc(-c3ccsc3)c(F)c2)C(=O)O1 | Haemophilus influenzae | UC 30063 | - | - | - | MIC | - | 8 µg/mL
O=P1(O)OCC2O[C@@H](n3cnc4c(SCc5ccccc5)ncnc43)[C@H](O)C2O1 | Parainfluenza virus | TYPE 3 | - | - | - | MIC | - | 320 µg/mL
O=C(CCCCCCCCCCC(=O)Nc1cc(S(=O)(=O)O)c2cccc(S(=O)(=O)O)c2c1)Nc1cc(S(=O)(=O)O)c2cccc(S(=O)(=O)O)c2c1 | Cytomegalovirus | AD169 | - | MRC-5 | plaque count | EC50 | - | >100 µM
CCOP(=O)(O)CCC(CO)OCn1cnc2c(=O)[nH]c(N)nc21 | Guinea pig cytomegalovirus | 22122 | - | MRC-5 | plaque count | EC50 | - | 56 µg/mL
Cc1cc(C#N)cc(C(=O)c2cc(Cl)ccc2OCC(=O)Nc2ccc(S(N)(=O)=O)nc2C)c1 | HIV-1 | HXB2 | RT-L100I | HeLa + HELA CD4+ | β-galactosidase | fold resistance | - | ~1
CCC(CC)O[C@@H]1C=C(C(=O)O)C[C@H](N)[C@H]1NC(C)=O | Influenza A virus | H1N1 isolate C23D | - | MDCK | plaque count | EC50 | - | 0.1 µg/mL
CCc1cc(C#N)cc(C(=O)c2cc(Cl)ccc2OCC(=O)Nc2ccc(S(N)(=O)=O)cc2C)c1 | HIV-1 | HXB2 | RT-K103N P225H | HeLa + HELA CD4+ | β-galactosidase | fold resistance | - | ~1
CC(=O)NC[C@H]1CN(c2ccc(-c3ccn(CCC#N)n3)c(F)c2)C(=O)O1 | Staphylococcus epidermidis | UC12084 (methicillin-resistant) | - | - | - | MIC | - | 2 µg/mL
Nc1ncnc2c1ncn2[C@@H](C=O)O[C@@H](C=O)COP(=O)(O)OP(=O)(O)OP(=O)(O)O | SIV | - | - | GHOST | luciferase | EC50 | - | 71.5 µM
CC(=O)OC[C@H]1O[C@@H](n2ncc(=O)[nH]c2=O)[C@H](OC(C)=O)[C@@H]1OC(C)=O | Dengue virus | Caribbean (type 4) | - | LLC-MK2 | plaque count | EC50 | - | <1 µg/mL
CC(=O)NC[C@H]1CN(c2ccc(-c3cc(C#N)cs3)c(F)c2)C(=O)O1 | Staphylococcus epidermidis | UC12084 (methicillin-resistant) | - | - | - | MIC | - | ≤0.5 µg/mL
CC[C@H]1OC(=O)[C@@](C)(F)C(=O)[C@H](C)[C@@H](O[C@@H]2O[C@H](C)C[C@H](N(C)C)[C@H]2O)[C@@]2(C)C[C@@H](C)C(=NC(C)=O)[C@H](C)[C@@H](OC/C(=N\OCc3ccc4nc(N)sc4c3)CO2)[C@]1(C)O | Streptococcus pneumoniae | 7701 (erythromycin A-resistant) | - | - | - | MIC | - | 0.13 µg/mL
C=CCc1ccc(O)c(OC)c1 | Candida albicans | 3036 | - | - | turbidity | MIC90 | - | 495 µg/mL
CC(=O)NC[C@H]1CN(c2ccc(-c3cccs3)c(F)c2)C(=O)O1 | Haemophilus influenzae | UC 30063 | - | - | - | MIC | - | 8 µg/mL
Cc1ccc(C(=O)Nc2ccc(S(=O)(=O)O)c3cc(S(=O)(=O)O)cc(S(=O)(=O)O)c23)cc1NC(=O)c1cccc(NC(=O)Nc2cccc(C(=O)Nc3cc(C(=O)Nc4ccc(S(=O)(=O)O)c5cc(S(=O)(=O)O)cc(S(=O)(=O)O)c45)ccc3C)c2)c1 | Cytomegalovirus | Isolate T-1095 | - | MRC-5 | plaque count | EC50 | - | 25 µM
Nc1nc2c(ncn2COC(CO)CO)c(=O)[nH]1 | Cytomegalovirus | AD169 | - | HFF | hybridisation | inhibition | 30 µM | 96%
CC(=O)Oc1cccc2c1C(=O)c1c(cnn1C)C2=O | Cryptosporidium parvum | - | - | - | - | inhibition | 100 µM | 100%
COC(=O)n1ccc(-c2ccc(N3C[C@H](CNC(C)=O)OC3=O)cc2F)n1 | Haemophilus influenzae | UC 30063 | - | - | - | MIC | - | >64 µg/mL
Cc1cc(S(N)(=O)=O)ccc1NC(=O)COc1ccc(Cl)cc1C(=O)c1cccc(C#N)c1 | HIV-1 | HXB2 | RT-V106I | HeLa + HELA CD4+ | β-galactosidase | fold resistance | - | ~1
O=c1[nH]c(=O)n([C@H]2C[C@H](O)[C@@H](CO)O2)cc1I | Herpes simplex virus 1 | NOL | - | - | - | MIC | - | 1.1 µg/mL
O=C(CCCCCCCCCCC(=O)Nc1cc(S(=O)(=O)O)cc2cc(S(=O)(=O)O)cc(O)c12)Nc1cc(S(=O)(=O)O)cc2cc(S(=O)(=O)O)cc(O)c12 | Cytomegalovirus | AD169 | - | MRC-5 | plaque count | EC50 | - | >100 µM
CC[C@H]1OC(=O)[C@H](C)C(=O)[C@H](C)[C@@H](O[C@@H]2O[C@H](C)C[C@H](N(C)C)[C@H]2O)[C@@]2(C)C[C@@H](C)C(=NC(C)=O)[C@H](C)[C@@H](OC/C(=N\OCc3ccc(C(N)=O)s3)CO2)[C@]1(C)O | Streptococcus pneumoniae | 7701 (erythromycin A-resistant) | - | - | - | MIC | - | 0.5 µg/mL

Repeating the final 5 entries:

{"structure": "COC(=O)n1ccc(-c2ccc(N3C[C@H](CNC(C)=O)OC3=O)cc2F)n1", "agent": "Haemophilus influenzae", "strain or isolate": "UC 30063", "measure": "MIC", "result": ">64 µg/mL"}
{"structure": "Cc1cc(S(N)(=O)=O)ccc1NC(=O)COc1ccc(Cl)cc1C(=O)c1cccc(C#N)c1", "agent": "HIV-1", "strain or isolate": "HXB2", "mutations": "RT-V106I", "cells": "HeLa + HELA CD4+", "read by": "β-galactosidase", "measure": "fold resistance", "result": "~1"}
{"structure": "O=c1[nH]c(=O)n([C@H]2C[C@H](O)[C@@H](CO)O2)cc1I", "agent": "Herpes simplex virus 1", "strain or isolate": "NOL", "measure": "MIC", "result": "1.1 µg/mL"}
{"structure": "O=C(CCCCCCCCCCC(=O)Nc1cc(S(=O)(=O)O)cc2cc(S(=O)(=O)O)cc(O)c12)Nc1cc(S(=O)(=O)O)cc2cc(S(=O)(=O)O)cc(O)c12", "agent": "Cytomegalovirus", "strain or isolate": "AD169", "cells": "MRC-5", "read by": "plaque count", "measure": "EC50", "result": ">100 µM"}
{"structure": "CC[C@H]1OC(=O)[C@H](C)C(=O)[C@H](C)[C@@H](O[C@@H]2O[C@H](C)C[C@H](N(C)C)[C@H]2O)[C@@]2(C)C[C@@H](C)C(=NC(C)=O)[C@H](C)[C@@H](OC/C(=N\\OCc3ccc(C(N)=O)s3)CO2)[C@]1(C)O", "agent": "Streptococcus pneumoniae", "strain or isolate": "7701 (erythromycin A-resistant)", "measure": "MIC", "result": "0.5 µg/mL"}